A mixed list of measured activities; the numbers were collected in NIAID ChemDB.

Common to all: whole-cell or culture tests; agent: Candida albicans; measure: MIC

Blank or dashed fields: not listed here. Rows are shuffled and stem from different studies.

structure	strain	read by	result
CCCCCCCCCCCC[N+](C)(C)COC1CCCCC1	ATCC 10231		138 µM
Nc1ncnc2c1ncn2[C@@H]1O[C@H](C(=O)O)[C@@H](NC(=O)C(N)CSCc2ccco2)[C@H]1O	FP633		0.8 µg/mL
CC1(C)C2CC3OB(C[C@@H](Cc4ccccc4)NC(=O)[C@H](N)CCCCN)O[C@]3(C)C1C2			≤500 µg/mL
NCCCOc1ccc(C[C@H](N)C(=O)N[C@H]2[C@@H](O)[C@H](n3cnc4c(N)ncnc43)O[C@@H]2C(=O)O)cc1	FP633		>100 µg/mL
C[C@H]1[C@H](O)[C@@H](C)/C=C/C=C/C=C/C=C/C=C/C=C/C=C/[C@H](O[C@@H]2O[C@H](C)[C@@H](O)[C@H](N)[C@@H]2O)C[C@@H]2O[C@](O)(C[C@@H](O)C[C@@H](O)CC[C@H](O)[C@@H](O)C[C@@H](O)CC(=O)O[C@H]1C)C[C@H](O)[C@H]2C(=O)O	315		1 µg/mL
C[C@H]1[C@H](O)[C@@H](C)/C=C/C=C/C=C/C=C/C=C/C=C/C=C/[C@H](O[C@@H]2O[C@H](C)[C@@H](O)[C@H](N)[C@@H]2O)C[C@@H]2O[C@](O)(C[C@@H](O)C[C@@H](O)CC[C@H](O)[C@@H](O)C[C@@H](O)CC(=O)O[C@H]1C)C[C@H](O)[C@H]2C(=O)O	ATCC 10261		0.25 µg/mL
CC[C@H]1OC(=O)C[C@@H](O)[C@H](C)[C@@H](OC2OC(C)C(O)C(N(C)C)C2O)[C@@H](CCN2CC(C)CC(C)C2)C[C@@H](C)C(=O)/C=C/C=C/[C@@H]1COC1OC(C)C=CC1OC			5 µg/mL
CCO/N=C(/C(=O)N[C@H]1[C@@H](O)[C@H](n2cnc3c(N)ncnc32)O[C@@H]1C(=O)O)C1N=C(N)SN1	FP633		>100 µg/mL
CCCCCCCCCCCC[N+](C)(C)COC(C)CCC	ATCC 10231		143 µM
CC[C@H]1OC(=O)C[C@@H](O)[C@H](C)[C@@H](OC2OC(C)C(O)C(N(C)C)C2O)[C@@H](CCN2CC(C)CC(C)C2)C[C@@H](C)C(=O)/C=C/C=C/[C@@H]1CSc1ncccn1			10 µg/mL
CNc1ncnc2c1ncn2[C@@H]1O[C@H](C(=O)O)[C@@H](NC(=O)[C@@H](N)Cc2ccc(OC)cc2)[C@H]1O	FP633		>100 µg/mL
CCCSc1nc(Cl)c(C#N)c(-c2ccco2)n1			>100 µg/mL
C[C@@H](B1OC2CC3CC(C3(C)C)[C@@]2(C)O1)[C@@H](Cc1ccccc1)NC(=O)[C@@H](N)CCCCN		agar	≤500 µg/mL
CSCC(N)C(=O)N[C@H]1[C@@H](O)[C@H](n2cnc3c(N)ncnc32)O[C@@H]1C(=O)O	FP633		0.2 µg/mL
CC1(C)C2CC3OB(C[C@@H](Cc4ccccc4)NC(=O)[C@@H](N)CCCN=C(N)N)O[C@]3(C)C1C2		agar	≤500 µg/mL
CCCCCCCCCCCC[N+](C)(C)CSCCC	ATCC 10231		296 µM
COc1cccc(C(=O)/C=C/c2ccncc2)c1			17.6 µg/mL
Nc1scc2c1c(=O)oc1ccc3ccccc3c12	ATCC 2091	broth dilution	128 µg/mL
C[C@@H]1[C@H](O)[C@@H](C)/C=C/C=C/C=C/C=C/C=C/C=C/C=C/[C@H](OC2O[C@H](C)[C@@H](O)[C@H](N(CCCN)CCCN)[C@@H]2O)C[C@@H]2O[C@](O)(C[C@@H](O)C[C@@H](O)[C@H](O)CC[C@@H](O)C[C@@H](O)CC(=O)O[C@H]1C)C[C@H](O)[C@H]2C(=O)O	DSY654		0.1 µM
CCCCCCCCCCCC[n+]1cccc(/C=C/C(=O)c2ccccc2OC)c1			<7.25 µg/mL
CC[C@H]1OC(=O)C[C@@H](O)[C@H](C)[C@@H](OC2OC(C)C(O)C(N(C)C)C2O)[C@@H](CCOc2ccccc2)C[C@@H](C)C(=O)/C=C/C=C/[C@@H]1COC1OC(C)C=CC1OC			50 µg/mL
CCCCCCCCCC[n+]1ccc(/C=C/C(=O)c2ccccc2OC)cc1			<6.8 µg/mL
CC1(C)C2CC3OB([C@H](Cc4ccccc4)[C@@H](Cc4ccccc4)NC(=O)[C@@H](N)CCCCN)O[C@]3(C)C1C2		agar	≤500 µg/mL
COc1cccc(C(=O)/C=C/c2ccccn2)c1			<7.1 µg/mL
CSc1nc(Cl)c(C#N)c(-c2ccc(F)cc2F)n1			>100 µg/mL
C[C@@H](B1OC2CC3CC(C3(C)C)[C@@]2(C)O1)[C@@H](Cc1ccccc1)NC(=O)[C@H](Cc1ccccc1)NC(=O)[C@@H](N)CCCCN			≤500 µg/mL
CC[C@H]1OC(=O)C[C@@H](O)[C@H](C)[C@@H](OC2OC(C)C(O)C(N(C)C)C2O)[C@@H](CCN2CC(C)CC(C)C2)C[C@@H](C)C(=O)/C=C/C=C/[C@@H]1CSC1CCCCC1			5 µg/mL
COc1ccc(C(=O)/C=C/c2ccncc2)cc1			15.5 µg/mL
CC1(C)C2CC3OB(C[C@@H](Cc4ccccc4)NC(=O)[C@H](Cc4ccccc4)NC(=O)[C@@H](N)Cc4ccccc4)O[C@]3(C)C1C2			≤500 µg/mL
CCCCCCCC[n+]1cccc(/C=C/C(=O)c2cccc(OC)c2)c1			<7.42 µg/mL
CCCCCCCCCCCC[N+](C)(C)COCCCCCCCCCCC	ATCC 10231		115 µM
C[C@@H]1[C@H](O)[C@@H](C)/C=C/C=C/C=C/C=C/C=C/C=C/C=C/[C@H](OC2O[C@H](C)[C@@H](O)[C@H](N(CCCN)CCCN)[C@@H]2O)C[C@@H]2O[C@](O)(C[C@@H](O)C[C@@H](O)[C@H](O)CC[C@@H](O)C[C@@H](O)CC(=O)O[C@H]1C)C[C@H](O)[C@H]2C(=O)NCCCCCCN	CAF2-1		0.3 µM
Nc1ncnc2c1ncn2[C@@H]1O[C@H](C(=O)O)[C@@H](NC(=O)C(N)CSc2ccccc2)[C@H]1O	FP633		3.1 µg/mL
C[C@@H]1[C@H](O)[C@@H](C)/C=C/C=C/C=C/C=C/C=C/C=C/C=C/[C@H](OC2O[C@H](C)[C@@H](O)[C@H](N(CCCN)CCCN)[C@@H]2O)C[C@@H]2O[C@](O)(C[C@@H](O)C[C@@H](O)[C@H](O)CC[C@@H](O)C[C@@H](O)CC(=O)O[C@H]1C)C[C@H](O)[C@H]2C(=O)NCCn1cncn1	CAF2-1		0.04 µM
Cc1c(O)cccc1C(=O)N[C@@H](CSc1ccccc1)[C@H](O)CN1C[C@H]2CCCC[C@H]2C[C@H]1C(=O)NC(C)(C)C	I149A		>64 µg/mL
C[C@H]1[C@H](O)[C@@H](C)/C=C/C=C/C=C/C=C/C=C/C=C/C=C/[C@H](O[C@@H]2O[C@H](C)[C@@H](O)[C@H](N)[C@@H]2O)C[C@@H]2O[C@](O)(C[C@@H](O)C[C@@H](O)CC[C@H](O)[C@@H](O)C[C@@H](O)CC(=O)O[C@H]1C)C[C@H](O)[C@H]2C(=O)O	ATCC 10231	absorbance	1 µg/mL
COc1ccc(C(=O)/C=C/c2cccnc2)cc1			32.5 µg/mL
CCSc1nc(Cl)c(C#N)c(-c2ccc(F)cc2F)n1			50 µg/mL

2 of the rows above, restated:

{"structure": "CCSc1nc(Cl)c(C#N)c(-c2ccc(F)cc2F)n1", "result": "50 µg/mL"}
{"structure": "COc1cccc(C(=O)/C=C/c2ccncc2)c1", "result": "17.6 µg/mL"}